Patent publication US20250382354A1 (INSTITUTE FOR RESEARCH IN BIOMEDICINE IRB, published 2025)

How the values were obtained:
Assay in all cases: protein ELISA
SARS-CoV-2 SD1-RBD Gamma = target: T1, SARS-CoV-2 SD1-RBD Gamma (SARS-CoV-2 Gamma)
T1 construct: domain: SD1-RBD

[1] = target: T2, SARS-CoV-2 SD1-RBD Omicron BA.4.6 (SARS-CoV-2 Omicron BA.4.6)
T2 construct: domain: SD1-RBD

[2] = target: T3, SARS-CoV-2 SD1-RBD Omicron BA.2 (SARS-CoV-2 Omicron BA.2)
T3 construct: domain: SD1-RBD

[3] = target: T4, SARS-CoV-2 S Omicron BA.4/BA.5 (ectodomain) (SARS-CoV-2 Omicron BA.4/BA.5)
T4 construct: extracellular domain

[4] = target: T5, SARS-CoV-2 SD1-RBD Omicron BA.2.75.2 (SARS-CoV-2 Omicron BA.2.75.2)
T5 construct: domain: SD1-RBD

[5] = target: T6, SARS-CoV-2 S Delta (ectodomain) (SARS-CoV-2 Delta)
T6 construct: extracellular domain

[6] = target: T7, SARS-CoV-2 SD1-RBD Omicron BA.4.7 (SARS-CoV-2 Omicron BA.4.7)
T7 construct: domain: SD1-RBD

SARS-CoV-2 SD1-RBD Beta = target: T8, SARS-CoV-2 SD1-RBD Beta (SARS-CoV-2 Beta)
T8 construct: domain: SD1-RBD

SARS-CoV-2 SD1-RBD Delta = target: T9, SARS-CoV-2 SD1-RBD Delta (SARS-CoV-2 Delta)
T9 construct: domain: SD1-RBD

[7] = target: T10, SARS-CoV-2 SD1-RBD Omicron BA.5.9 (SARS-CoV-2 Omicron BA.5.9)
T10 construct: domain: SD1-RBD

[8] = target: T11, SARS-CoV-2 S Omicron BA.1 (ectodomain) (SARS-CoV-2 Omicron BA.1)
T11 construct: extracellular domain

B1: sd1.108 (antibody, V domains shown)
VH: QVQLVQSGAEVKKPGASVKVSCKASGYTFTSYYIHWVRQTPGQGLEWMGIINPRGGSTSYPQKFQGRVSMTRDTSTSTVFMELSSLRSDDTAVYYCAREHREDTAMDNQPSDSWGQGTLVTVSS
VL: DIVMTQSPDSLSVSLGERATINCKSSRSVFYSSNNKSYLAWYQQKPGQPPKLLIYWASTRESGVRDRFSGSGSGTDFTLTISSLQAEDVAVYYCQQYYNTPYTFGQGTKLEIK
B1 was tested, and the EC50 (SARS-CoV-2 SD1-RBD Gamma) was 0.0183 µg/mL, the EC50 [1] was 0.0308 µg/mL and the EC50 [2] was 0.0201 µg/mL. For the same binder, the EC50 [3] was 0.0217 µg/mL, the EC50 [4] was 0.0282 µg/mL and the EC50 [5] was 0.0155 µg/mL. The EC50 [6] was 0.0365 µg/mL, the EC50 (SARS-CoV-2 SD1-RBD Beta) was 0.0265 µg/mL and the EC50 (SARS-CoV-2 SD1-RBD Delta) was 0.0241 µg/mL. The EC50 [7] was 0.0287 µg/mL and the EC50 [8] was 0.0382 µg/mL.

B2: sd1.150 (antibody, V domains shown)
V domain 1: EVQLVESGGGVVQPGRSLRLSCAASGFTFSSHGMHWVRQAPGRGLEWVAVISFDGRNKFYVDSVKGRFTISRDNSKNTLYLHMNSLRAADTAVYYCAKDHDPDGSGSYFSNWFDAWGQGTLVTVSS
V domain 2: SYELTQPPSVSVSPGQTASITCSGDKLGDKYAYWYRQKPGQSPVVVIYQDNKRPSGIPERFSGSNSGNTATLTISGTQAMDEADYYCQAWDTYSGVFGTGTQVTVL
B2 was tested, and the EC50 (SARS-CoV-2 SD1-RBD Gamma) was 0.0844 µg/mL, the EC50 [1] was 0.676 µg/mL and the EC50 [2] was 0.234 µg/mL. For the same binder, the EC50 [3] was 0.0685 µg/mL, the EC50 [4] was 1.07 µg/mL and the EC50 [5] was 0.0255 µg/mL. The EC50 [6] was 1.3 µg/mL, the EC50 (SARS-CoV-2 SD1-RBD Beta) was 0.163 µg/mL and the EC50 (SARS-CoV-2 SD1-RBD Delta) was 0.0522 µg/mL. It also gave an EC50 [7] of 0.945 µg/mL and an EC50 [8] of 0.055 µg/mL.

B3: sd1.151 (antibody, V domains shown)
VH: EVQLVESGGGLVKPGGSLRLSCAVSGFTFSNAWMTWVRQAPGKGLEWVGRIKTKPEGGTTDYATPVKGRFTISRDDSIDTLYLQMNSLKTEDTAVYYCSTFSSPDHWGQGTLVTVSS
VL: DIVMTQSPDSLAVSLGERATINCKSSQSVFHSSNNKNYLIWYQHKPGQPPKLLISWASTRESGVPDRFSGSGSGTDFTLTISSLQAEDVAVYYCHQYYSTPFTFGPGTKVDIK
In the case of B3, the EC50 (SARS-CoV-2 SD1-RBD Gamma) is reported as 0.0198 µg/mL, the EC50 [1] is reported as 0.0242 µg/mL and the EC50 [2] is reported as 0.0263 µg/mL. The EC50 [3] was 0.0199 µg/mL, the EC50 [4] was 0.0168 µg/mL and the EC50 [5] was 0.0202 µg/mL. The EC50 [6] was 0.0227 µg/mL, the EC50 (SARS-CoV-2 SD1-RBD Beta) was 0.0235 µg/mL and the EC50 (SARS-CoV-2 SD1-RBD Delta) was 0.0323 µg/mL. For the same binder, the EC50 [7] was 0.0188 µg/mL and the EC50 [8] was 0.0372 µg/mL.

B4: sd1.127 (antibody, V domains shown)
VH: EVQLVESGGALVKPGGSLTLSCVASGFTFSHAWMTWVRQAPGKGLEWVGRIKTKTEGGTIDYAAPLRGRFTISRDDSKNTLYLRMNSLKIEDTAKYYCTTHSSPDYWGQGTLVTVSS
VL: DIQMTQSPSSLSASIGDRVTITCRASQGIGNSLLWYQQKRGKVPKLLIYAASTLQSGVPSRFSGSGSGTDFTLTISSLQPEDVATYYCQRYNSAPLTFGGGTKVEIK
B4 showed an EC50 (SARS-CoV-2 SD1-RBD Gamma) of 0.00935 µg/mL, an EC50 [1] of 0.0131 µg/mL and an EC50 [2] of 0.00961 µg/mL. It also gave an EC50 [3] of 0.0107 µg/mL, an EC50 [4] of 0.0104 µg/mL and an EC50 [5] of 0.0127 µg/mL. It also gave an EC50 [6] of 0.0129 µg/mL, an EC50 (SARS-CoV-2 SD1-RBD Beta) of 0.0103 µg/mL and an EC50 (SARS-CoV-2 SD1-RBD Delta) of 0.0124 µg/mL. The EC50 [7] was 0.0102 µg/mL and the EC50 [8] was 0.016 µg/mL.

B5: rbd.046 (antibody, V domains shown)
VH: EVQLVESGGGVVQPGRSLRLSCAASGFTFSHYGMHWVRQAPGKGLEWVAVISYDGSNKYYADSVKGRFTISRDNSKSTLYLQMNSLRAEDTAVYYCAKGEWYYDIFTGYYPYWGQGTLVTVSS
VL: not shown
For B5, the EC50 (SARS-CoV-2 SD1-RBD Gamma) was 0.023 µg/mL, the EC50 [1] was 0.116 µg/mL and the EC50 [2] was 0.0625 µg/mL. For the same binder, the EC50 [3] was 0.577 µg/mL, the EC50 [4] was 0.377 µg/mL and the EC50 [5] was 0.058 µg/mL. The EC50 [6] was 0.144 µg/mL, the EC50 (SARS-CoV-2 SD1-RBD Beta) was 0.0398 µg/mL and the EC50 (SARS-CoV-2 SD1-RBD Delta) was 0.0235 µg/mL. The EC50 [7] was 0.105 µg/mL and the EC50 [8] was 1.5 µg/mL.

B6: rbd.031 (antibody, V domains shown)
VH: EVQLVESGGGVVQPGRSLRLSCAASGFTFKTYGMHWVRQAPGKGLEWVAVISYEGSNEYYAESVKGRFTISRDNSKNTLYLHMNSLRAEDTAVYYCAKGEYYYHSSTYYYLDYWGRGTLVTVSS
VL: DIQMTQSPSTLSASVGDRVTITCRASQSISSWLAWYQQKPGKAPKVLIYDASSLQSGVPLRFSGSGSGTEFTLTISSLQPDDFATYYCQQYDTYWTFGQGTKVEIK
B6 gave an EC50 (SARS-CoV-2 SD1-RBD Gamma) of 0.0174 µg/mL, an EC50 [1] of 0.033 µg/mL and an EC50 [2] of 0.0143 µg/mL. The EC50 [3] was 0.058 µg/mL, the EC50 [4] was 0.0522 µg/mL and the EC50 [5] was 0.0208 µg/mL. It also gave an EC50 [6] of 0.0316 µg/mL, an EC50 (SARS-CoV-2 SD1-RBD Beta) of 0.0209 µg/mL and an EC50 (SARS-CoV-2 SD1-RBD Delta) of 0.0149 µg/mL. It also gave an EC50 [7] of 0.0276 µg/mL and an EC50 [8] of 2.01 µg/mL.
